# Reference: US7968530B2 (priority 2005, dated 2011)
# Tested on: Phytophthora infestans
# Settings: ionic couple of acid choline phosphite, 1575 ppm equivalent phosphorous acid
substance,measurement,value
Acid Choline Phosphite [Compound 2],Synergy factor (experimental activity/activity calculated according to Limpel),1.4
